Pooled drug test results. Numbers come from NIAID ChemDB, via PubChem.

Common to all: growth or infection tests; organism: Hepatitis C virus; measure: inhibition

Neighbouring rows are from separate reports. Inhibition is in % at the dose shown (toxicity tests: loss of growth or viability).

{"compound": "CC(=O)OC[C@]12[C@H](OC(C)=O)[C@H](OCc3ccccc3)[C@@H]3[C@@H](OC(C)=O)[C@@]14O[C@@]3(C)COC(=O)c1cccnc1C(C)C(C)C(=O)O[C@@H]([C@H](OC(C)=O)[C@@H]2OC(C)=O)[C@]4(C)O", "cells": "Huh7.5", "dose": "50 µM", "strain or isolate": "Cell culture J6/JFH-1", "result": "99%"}
{"compound": "CC1(C)CC[C@@]2(C(=O)NCc3cn(CCCCCn4cc(CNC(=O)[C@]56CCC(C)(C)CC5C5=CCC7[C@@]8(C)CC[C@H](O)C(C)(C)C8CC[C@@]7(C)[C@]5(C)C[C@H]6O)nn4)nn3)C(C1)C1=CCC3[C@@]4(C)CC[C@H](O)C(C)(C)C4CC[C@@]3(C)[C@]1(C)C[C@H]2O", "cells": "Huh7", "dose": "1 µM", "method": "luciferase / entry", "result": "65.5%"}
{"compound": "C[C@H]1[C@H](C)CC[C@]2(C(=O)O)CC[C@]3(C)C(=CC[C@@H]4[C@@]5(C)CC[C@H](O)C(C)(C)[C@@H]5CC[C@]43C)[C@H]12", "cells": "Huh7", "dose": "5 µM", "method": "luciferase / entry", "result": "35.1%"}
{"compound": "O=C(Nc1cccc(-c2ccco2)c1)C1CCN(C(=O)c2ccoc2)CC1", "cells": "Huh7", "dose": "15 µM", "method": "PCR", "strain or isolate": "JFH-1", "result": "<40%"}
{"compound": "CC1(C)CC[C@]2(C(=O)O)CC[C@]3(C)C(=CC[C@@H]4[C@@]5(C)CC[C@H](O)C(C)(C)[C@@H]5CC[C@]43C)[C@@H]2C1", "cells": "Huh7", "dose": "5 µM", "method": "luciferase / entry", "conditions": "pseudotyped", "result": "23.6%"}
{"compound": "CC1(C)CC[C@@]2(C(=O)NCc3cn(CCOCCOCCOCCn4cc(CNC(=O)[C@]56CCC(C)(C)CC5C5=CCC7[C@@]8(C)CC[C@H](O)C(C)(C)C8CC[C@@]7(C)[C@]5(C)C[C@H]6O)nn4)nn3)C(C1)C1=CCC3[C@@]4(C)CC[C@H](O)C(C)(C)C4CC[C@@]3(C)[C@]1(C)C[C@H]2O", "cells": "Huh7", "dose": "1 µM", "method": "luciferase / entry", "result": "84.1%"}
{"compound": "O=C1N/C(=N\\c2nnc(-c3ccc(Cl)cc3)s2)S/C1=C\\c1ccc(Cl)cc1Cl", "cells": "Huh7.5-FGR-JC1-Rluc2A", "dose": "100 µM", "method": "MTS", "result": "0%"}
{"compound": "CCn1cc(CNC(=O)[C@]23CCC(C)(C)CC2C2=CCC4[C@@]5(C)CC[C@H](O)C(C)(C)C5CC[C@@]4(C)[C@]2(C)C[C@H]3O)nn1", "cells": "Huh7", "dose": "1 µM", "method": "luciferase / entry", "result": "0.5%"}
{"compound": "COc1cccc(CN2CCC(C(=O)Nc3ccc(Oc4ccccc4F)cc3)CC2)c1", "cells": "Huh7", "dose": "15 µM", "method": "PCR", "strain or isolate": "JFH-1", "result": "≥40%"}
{"compound": "CC1(C)CC[C@@]2(C(=O)NCc3cn(CCCCn4cc(CNC(=O)[C@]56CCC(C)(C)CC5C5=CCC7[C@@]8(C)CC[C@H](O)C(C)(C)C8CC[C@@]7(C)[C@]5(C)C[C@H]6O)nn4)nn3)C(C1)C1=CCC3[C@@]4(C)CC[C@H](O)C(C)(C)C4CC[C@@]3(C)[C@]1(C)C[C@H]2O", "cells": "Huh7", "dose": "1 µM", "method": "luciferase / entry", "result": "47.8%"}
{"compound": "Cn1c(=O)c2c(ncn2C)n(C)c1=O", "cells": "Huh7.5", "dose": "2000 µM", "method": "luciferase / replicon", "strain or isolate": "J6/JFH", "result": "79.3%"}
{"compound": "O=C(Nc1cccc(-c2cccc(F)c2)c1)C1CCN(Cc2cccc3c2OCO3)CC1", "cells": "Huh7", "dose": "15 µM", "method": "PCR", "strain or isolate": "JFH-1", "result": "<40%"}
{"compound": "COc1cc(C(c2cc(OC)c3c(c2)OCO3)[C@@H]2COC(=O)[C@@H]2C)cc2c1OCO2", "cells": "Huh7.5", "dose": "50 µM", "method": "luciferase", "strain or isolate": "Subgenomic replicon JFH-1", "result": "68%"}
{"compound": "Cc1nc(C)c(CN2CCC(C(=O)Nc3cccc(-c4cccc(F)c4)c3)CC2)nc1C", "cells": "Huh7", "dose": "5 µM", "method": "PCR", "strain or isolate": "JFH-1", "result": "≥40%"}
{"compound": "CC1(C)CC[C@@]2(C(=O)NCCCNC(=O)[C@]34CCC(C)(C)CC3C3=CCC5[C@@]6(C)CC[C@H](O)C(C)(C)C6CC[C@@]5(C)[C@]3(C)C[C@H]4O)C(C1)C1=CCC3[C@@]4(C)CC[C@H](O)C(C)(C)C4CC[C@@]3(C)[C@]1(C)C[C@H]2O", "cells": "Huh7", "dose": "1 µM", "method": "luciferase / entry", "result": "44.6%"}

The first 2 rows once more:

CC(=O)OC[C@]12[C@H](OC(C)=O)[C@H](OCc3ccccc3)[C@@H]3[C@@H](OC(C)=O)[C@@]14O[C@@]3(C)COC(=O)c1cccnc1C(C)C(C)C(=O)O[C@@H]([C@H](OC(C)=O)[C@@H]2OC(C)=O)[C@]4(C)O ; cells: Huh7.5 ; dose: 50 µM ; strain or isolate: Cell culture J6/JFH-1 ; result: 99%
CC1(C)CC[C@@]2(C(=O)NCc3cn(CCCCCn4cc(CNC(=O)[C@]56CCC(C)(C)CC5C5=CCC7[C@@]8(C)CC[C@H](O)C(C)(C)C8CC[C@@]7(C)[C@]5(C)C[C@H]6O)nn4)nn3)C(C1)C1=CCC3[C@@]4(C)CC[C@H](O)C(C)(C)C4CC[C@@]3(C)[C@]1(C)C[C@H]2O ; cells: Huh7 ; dose: 1 µM ; method: luciferase / entry ; result: 65.5%